# Laboratory results taken from patent US20160024155A1 (published 2016).
# Biological target: A/South Carolina/1/1918 (H1N1) hemagglutinin ectodomain (Influenza A virus A/South …)
row,Binder,fold increase in binding affinity relative to original design (HB36)
1,"HB36 clone A2 ([change], [change], [change]) (designed binder) MSNAMDGQQLNRLLLEWIGAWDPFGLGKDAYDVEAEAVLQAVYETELAFDLAMRIMWIYAFAFNRPILFLHAQKLARRLLELKQAASSPLPLE",> 10 fold
2,"HB36 clone A4 ([change], [change]) (designed binder) MSNAMDGQQLNRLLLEWIGAWDPFGLGKDAYDVEAEAVLQAVYETERAFDLAMRIMWIYAFAFNRPIPFLHAQKLARRLLELKQAASSPLPLE",> 10 fold
3,HB36 clone B2 ([change]) (designed binder) MSNAMDGQQLNRLLLEWIGAWDPFGLGKDAYDVEAEAVLQAVYETEEAFDLAMRIMWIYAFAFNRPIPFPHAQKLARRLLELKQAASSPLPLE,> 10 fold
4,HB36 clone B3 ([change]) (designed binder) MSNAMDGQQLNRLLLEWIGAWDPFGLGKDAYDVEAEAVLQAVYETERAFDLAMRIMWIYAFAFNRPIPFPHAQKLARRLLELKQAASSPLPLE,> 10 fold
5,HB36 clone B6 ([change]) (designed binder) MSNAMDGQQLNRLLLEWIGAWDPFGLGKDAYDVEAEAVLQAVYETEWAFDLAMRIMWIYAFAFNRPIPFPHAQKLARRLLELKQAASSPLPLE,> 10 fold
6,HB36 clone C3 ([change]) (designed binder) MSNAMDGQQLNRLLLEWIGAWDPFGLGKDAYDVEAEAVLQAVYETEHAFDLAMRIMWIYAFAFNRPIPFPHAQKLARRLLELKQAASSPLPLE,> 10 fold
7,"HB36 clone C4 ([change], [change]) (designed binder) MSNAMDGQQLNRLLLEWIGAWDPFGLGKDAYDVEAEAVLQAVYETEHAFDLAMRIMWIYAFAFNRPIPFSHAQKLARRLLELKQAASSPLPLE",> 10 fold
8,"HB36 clone D3 ([change], [change]) (designed binder) MSNAMDSQQLNRLLLEWIGAWDPFGLGKDAYDVEAEAVLQAVYETENAFDLAMRIMWIYAFAFNRPIPFPHAQKLARRLLELKQAASSPLPLE",> 10 fold
9,"HB36 clone E1 ([change], [change]) (designed binder) MSNAMDGQQLNRLLLEWICAWDPFGLGKDAYDVEAEAVLQAVYETEYAFDLAMRIMWIYAFAFNRPIPFPHAQKLARRLLELKQAASSPLPLE",> 10 fold
